Anti-infective test results gathered from many reports (values: NIAID ChemDB through PubChem).

Common to all: growth or infection tests; agent: Staphylococcus aureus; endpoint: MIC

Rows are shuffled and stem from different studies.

structure,strain,value
CCCCCCCCCCCC[N+](C)(C)COCC(CC)CCC,ATCC 6538,12.8 µM
CC(C)CC(=O)NC[C@H]1CN(c2ccc3c(c2)-n2cccc2COC3)C(=O)O1,ATCC 33591 (MRSA),16 µg/mL
CCCCCCCCCCCC[N+](C)(C)COCCC,ATCC 6538,1.55 µM
CC(C)(CN)CNc1cc2c(cc1F)c(=O)c(C(=O)O)cn2C1CC1,ATCC 5278 (methicillin-resistant),3.12 µg/mL
CC(=O)NC[C@H]1CN(c2ccc(-c3cccs3)c(F)c2)C(=O)O1,UC9213 (methicillin-susceptible),0.5 µg/mL
CCCCCCCCCCCC[N+](C)(C)COCC,ATCC 6538,4.87 µM
CS(=O)(=O)N[C@H]1CCN(c2ccc(N3C[C@H](COc4cnsn4)OC3=O)cc2F)C1,078 (oxford),0.25 µg/mL
CC[C@H]1OC(=O)[C@H](C)C(=O)[C@H](C)[C@@H](O[C@@H]2O[C@H](C)C[C@H](N(C)C)[C@H]2O)[C@@]2(C)C[C@@H](C)C(=NC(C)=O)[C@H](C)[C@@H](OC/C(=N\OCc3ccc4nc(N)sc4c3)CO2)[C@]1(C)O,25923 (erythromycin-susceptible),0.13 µg/mL
CC[C@H]1OC(=O)[C@H](C)C(=O)[C@H](C)[C@@H](O[C@@H]2O[C@H](C)C[C@H](N(C)C)[C@H]2O)[C@@]2(C)C[C@@H](C)C(=NC(C)=O)[C@H](C)C(OC/C(=C\C#Cc3cccnc3)CO2)[C@]1(C)O,33591 (erythromycin methicillin-resistant),>64 µg/mL
CO/N=C1\CN(c2nc3c(cc2F)c(=O)c(C(=O)O)cn3C2CC2)CC1CN,KU2245,2 µg/mL
CCCC/C=C/C(=O)NC[C@H]1CN(c2ccc3c(c2)-n2cccc2COC3)C(=O)O1,ATCC 33591 (MRSA),>32 µg/mL
NCCCNc1cc2c(cc1F)c(=O)c(C(=O)O)cn2C1CC1,ATCC 6538P,>100 µg/mL
CC(=O)NC[C@H]1CN(c2ccc(-c3ccnn3C)c(F)c2)C(=O)O1,UC9213 (methicillin-susceptible),1 µg/mL
CCCCCCCCCCCC[N+](C)(C)COCCCCCCCCC,ATCC 6538,3.69 µM
CC[C@H]1OC(=O)[C@H](C)C(=O)[C@H](C)[C@@H](O[C@@H]2O[C@H](C)C[C@H](N(C)C)[C@H]2O)[C@@]2(C)C[C@@H](C)C(=NC(C)=O)[C@H](C)[C@@H](OC/C(=N\OCC#Cc3cncnc3)CO2)[C@]1(C)O,27660 (erythromycin-resistant),0.25 µg/mL
CCCCCCCCCCCC[N+](C)(C)COC(CCC)CCC,ATCC33592,6.61 µM
Cc1c(N)c(F)cc2c(=O)c(C(=O)O)cn(-c3cc(N)c(F)cc3F)c12,W806 (methicillin-resistant),2 µg/mL
O=C1O[C@@H](COc2ccon2)CN1c1ccc(-n2ccnc2)c(F)c1,004 (methicillin quinolone-resistant),1 µg/mL
O=C(NC[C@H]1CN(c2ccc3c(c2)-n2cccc2COC3)C(=O)O1)C(Cl)Cl,ATCC 33591 (MRSA),4 µg/mL
CC[C@H]1OC(=O)[C@H](C)C(=O)[C@H](C)[C@@H](O[C@@H]2O[C@H](C)C[C@H](N(C)C)[C@H]2O)[C@@]2(C)C[C@@H](C)C(=NC(C)=O)[C@H](C)[C@@H](OC/C(=N\OCC#Cc3ncccn3)CO2)[C@]1(C)O,33591 (erythromycin methicillin-resistant),>64 µg/mL
CC[C@H]1OC(=O)[C@@](C)(F)C(=O)[C@H](C)[C@@H](O[C@@H]2O[C@H](C)C[C@H](N(C)C)[C@H]2O)[C@@]2(C)C[C@@H](C)C(=NC(C)=O)[C@H](C)[C@@H](OC/C(=N/OCc3ccc(-c4cccc(N)n4)s3)CO2)[C@]1(C)O,29213 (erythromycin A-susceptible),0.25 µg/mL
CC[C@H]1OC(=O)[C@H](C)C(=O)[C@H](C)[C@@H](O[C@@H]2O[C@H](C)C[C@H](N(C)C)[C@H]2O)[C@@]2(C)C[C@@H](C)C(=NC(C)=O)[C@H](C)C(OC/C(=C\C=C\c3cccnc3)CO2)[C@]1(C)O,29213 (erythromycin-susceptible),0.5 µg/mL
Cc1c(NCCCO)c(F)cc2c(=O)c(C(=O)O)cn(-c3cc(N)c(F)cc3F)c12,MR8736 (methicillin-resistant),8 µg/mL
CCC(=O)NC[C@H]1CN(c2ccc3c(c2)-n2cccc2COC3)C(=O)O1,ATCC 49951 (SMITH),4 µg/mL
CCCCCCCCCCCC[N+](C)(C)COC1CCCCCC1,ATCC 6538,13.3 µM
CC[C@H]1OC(=O)[C@@](C)(F)C(=O)[C@H](C)[C@@H](O[C@@H]2O[C@H](C)C[C@H](N(C)C)[C@H]2O)[C@@]2(C)C[C@@H](C)C(=NC(C)=O)[C@H](C)[C@@H](OC/C(=N\OCc3cccc(C(N)=O)c3)CO2)[C@]1(C)O,33591 (erythromycin methicillin-resistant),>64 µg/mL
CC[C@H]1OC(=O)[C@H](C)C(=O)[C@H](C)[C@@H](O[C@@H]2O[C@H](C)C[C@H](N(C)C)[C@H]2O)[C@@]2(C)C[C@@H](C)C(=NC(C)=O)[C@H](C)C(OC/C(=C\C=C\c3ccc([N+](=O)[O-])cc3)CO2)[C@]1(C)O,33591 (erythromycin methicillin-resistant),64 µg/mL
CCNc1c(F)cc2c(=O)c(C(=O)O)cn(-c3cc(N)c(F)cc3F)c2c1C,209P,0.008 µg/mL
CC[C@H]1OC(=O)[C@@](C)(F)C(=O)[C@H](C)[C@@H](O[C@@H]2O[C@H](C)C[C@H](N(C)C)[C@H]2O)[C@@]2(C)C[C@@H](C)C(=NC(C)=O)[C@H](C)[C@@H](OC/C(=N\OCc3ccc(-c4nccs4)nc3)CO2)[C@]1(C)O,27660 (erythromycin A -resistant),0.25 µg/mL
CC[C@H]1OC(=O)[C@H](C)C(=O)[C@H](C)[C@@H](O[C@@H]2O[C@H](C)C[C@H](N(C)C)[C@H]2O)[C@@]2(C)C[C@@H](C)C(=NC(C)=O)[C@H](C)C(OC/C=C/CO2)[C@]1(C)O,27660 (erythromycin-resistant),1 µg/mL
CC[C@H]1OC(=O)[C@@](C)(F)C(=O)[C@H](C)[C@@H](O[C@@H]2O[C@H](C)C[C@H](N(C)C)[C@H]2O)[C@@]2(C)C[C@@H](C)C(=N)[C@H](C)[C@@H](OC/C(=N\OCc3ccc(-c4nccs4)nc3)CO2)[C@]1(C)O,33591 (erythromycin methicillin-resistant),>64 µg/mL
CC[C@H]1OC(=O)[C@H](C)C(=O)[C@H](C)[C@@H](O[C@@H]2O[C@H](C)C[C@H](N(C)C)[C@H]2O)[C@@]2(C)C[C@@H](C)C(=NC(C)=O)[C@H](C)C(OC/C(=N\OCc3ccccc3)CO2)[C@]1(C)O,27660 (erythromycin-resistant),0.25 µg/mL
O=C(CO)N[C@H]1CCN(c2ccc(N3C[C@H](CNc4ccon4)OC3=O)cc2F)C1,004 (methicillin quinolone-resistant),4 µg/mL
CCN(CC)CCNc1cc2c(cc1F)c(=O)c(C(=O)O)cn2C1CC1,ATCC 6538P,>100 µg/mL
O=C1O[C@@H](COc2ccon2)CN1c1ccc(-n2cnc(CO)c2)c(F)c1,004 (methicillin quinolone-resistant),4 µg/mL
CC[C@H]1OC(=O)[C@@](C)(F)C(=O)[C@H](C)[C@@H](O[C@@H]2O[C@H](C)C[C@H](N(C)C)[C@H]2O)[C@@]2(C)C[C@@H](C)C(=O)[C@H](C)[C@@H](OC/C(=N\OCc3ccc(-n4cccn4)nc3)CO2)[C@]1(C)O,27660 (erythromycin A -resistant),0.06 µg/mL
CC(=O)NC[C@H]1CN(c2ccc(-c3ncon3)c(F)c2)C(=O)O1,UC9213 (methicillin-susceptible),4 µg/mL
CC[C@H]1OC(=O)[C@H](C)C(=O)[C@H](C)[C@@H](O[C@@H]2O[C@H](C)C[C@H](N(C)C)[C@H]2O)[C@@]2(C)C[C@@H](C)C(=NC(C)=O)[C@H](C)[C@@H](OC/C(=N\OCCCc3ccccc3)CO2)[C@]1(C)O,33591 (erythromycin methicillin-resistant),>64 µg/mL
COC(=O)n1ccc(-c2ccc(N3C[C@H](CNC(C)=O)OC3=O)cc2F)n1,UC9213 (methicillin-susceptible),8 µg/mL
CN(C)CC(C)(C)CNc1cc2c(cc1F)c(=O)c(C(=O)O)cn2C1CC1,ATCC 6538P,>100 µg/mL
CCC(=S)NC[C@H]1CN(c2ccc3c(c2)-n2cccc2COC3)C(=O)O1,ATCC 29213 (MSSA),4 µg/mL
NCCCCCCNc1cc2c(cc1F)c(=O)c(C(=O)O)cn2C1CC1,ATCC 6538P,>100 µg/mL
CC[C@H]1OC(=O)[C@H](C)C(=O)[C@H](C)[C@@H](O[C@@H]2O[C@H](C)C[C@H](N(C)C)[C@H]2O)[C@@]2(C)C[C@@H](C)C(=NC(C)=O)[C@H](C)[C@@H](OC/C(=N\Oc3ccc(-c4nccs4)nc3)CO2)[C@]1(C)O,33591 (erythromycin methicillin-resistant),64 µg/mL
CCCCCCCCCCCC[N+](C)(C)COC(C)CCCCCC,ATCC33592,1.53 µM
CC[C@H]1OC(=O)[C@H](C)C(=O)[C@H](C)[C@@H](O[C@@H]2O[C@H](C)C[C@H](N(C)C)[C@H]2O)[C@@]2(C)C[C@@H](C)C(=NC(C)=O)[C@H](C)[C@@H](OC/C(=N\OCc3ccc(C(N)=O)cc3)CO2)[C@]1(C)O,27660 (erythromycin-resistant),0.13 µg/mL
CCCCCCCCCCCC[N+](C)(C)COC(C)C,ATCC 6538,9.32 µM
CC[C@H]1OC(=O)[C@H](C)C(=O)[C@H](C)[C@@H](O[C@@H]2O[C@H](C)C[C@H](N(C)C)[C@H]2O)[C@@]2(C)C[C@@H](C)C(=NC(=O)CO)[C@H](C)C(OC/C(=C\C=C\c3ccccc3)CO2)[C@]1(C)O,33591 (erythromycin methicillin-resistant),32 µg/mL
CC[C@H]1OC(=O)[C@H](C)C(=O)[C@H](C)[C@@H](O[C@@H]2O[C@H](C)C[C@H](N(C)C)[C@H]2O)[C@@]2(C)C[C@@H](C)C(=NC(C)=O)[C@H](C)C(OC/C(=N/OCc3ccccc3)CO2)[C@]1(C)O,27660 (erythromycin-resistant),1 µg/mL
CNC1CCN(c2cc3c(cc2F)c(=O)c(C(=O)O)cn3C2CC2)CC1,ATCC 5278 (methicillin-resistant),3.12 µg/mL